Data taken from US10202379B2, “Substituted polycyclic carbamoyl pyridone derivative prodrug” (priority 2010, dated 2019).

How the values were obtained:
[1] = test system: influenza virus (A/WS/33, A/Victoria/3/75 or B/Maryland/1/59); assay: Influenza virus-infected mouse lethality inhibitory test; conditions: oral, 14 days after virus infection
[2] = target: Cap-dependant Endonuclease (CEN) (RNP fraction, PB1-PB2-PA complex) (Influenza A virus (strain A/Wilson-Smith/1933 H1N1) (Influenza A virus (strain A/WS/1933 H1N1)), UniProt P15659); conditions: read-out: CEN IC50
[3] = test system: influenza virus; conditions: read-out: CPE EC50; parent compounds (Reference examples); MDBK or MDCK cells, 3 days, WST-8

Structure (SMILES)	ED50 of single dose (dose for 50% lethality inhibition) [1] [mg/kg/day]	IC50 [2] [nM]	EC50 [3] [nM]
C[C@@H](N1CN([C@H]2c3ccccc3CSc3ccccc32)n2ccc(=O)c(O)c2C1=O)C(F)(F)F	12.3		
C[C@@H](N1CN([C@@H]2c3ccccc3SCc3c2cccc3C(F)(F)F)n2ccc(=O)c(O)c2C1=O)C(F)(F)F		29	12
C[C@@H](N1CN([C@H]2c3ccccc3CSc3c(CO)cccc32)n2ccc(=O)c(O)c2C1=O)C(F)(F)F			57
